Anti-infective test results gathered from many reports (values: NIAID ChemDB through PubChem).

Shared fields: host cell toxicity; cells: CEM; read by: MTT; endpoint: CC50

CCn is the concentration with n% toxicity to the cells. Neighbouring rows are from separate reports.

smiles,result
OB(O)c1ccccc1CN1CCSCC1,156 µM
O=c1ccn([C@@H]2C=C(F)[C@H](CO)S2)c(=O)[nH]1,>100 µM
CCCCCCCCCCCCCCCCOP(=O)([O-])OCCC[N+](C)(C)Cc1ccccc1,62.2 µM
CCc1c(NCc2cccc3ccccc23)cc(C)oc1=O,41 µM
Nc1ncnc2c1ncn2CCOCP(=O)(O)O,40 µM
Nc1nc2c(ncn2[C@H]2C=C[C@@H](CO)O2)c(=O)o1,300 µg/mL
O=C1CSC(c2c(F)cccc2F)N1c1ccc(Br)cn1,45.8 µM
CCCCCCCCCCCCCCCCOP(=O)([O-])OCC[n+]1ccccc1,22.9 µM
CCc1c(SCc2cccc3ccccc23)cc(C)oc1=O,77 µM
Cc1cc(C)nc(N2C(=O)CSC2c2c(Cl)cccc2Cl)c1,≥283.1 µM
Nc1nc2c(ncn2[C@H]2OC[C@@](F)(CCP(=O)(O)O)[C@H]2F)c(=O)[nH]1,>100 µM
Cc1ccnc2c1NC(=O)c1cccnc1N2C1CC1,>10 µM
CCCCCCCC/C=C\CCCCCCCC(=O)O[C@@H]1Cc2ccccc2[C@@H]1NC(=O)[C@H](Cc1ccccc1)C[C@H](O)CN1CCN(Cc2cccnc2)C[C@H]1C(=O)NC(C)(C)C,>100 µM
Nc1ncnc2c1ncn2[C@H]1OC[C@@](F)(CCP(=O)(O)O)[C@H]1F,>100 µM
CC(C)(C)NC(=O)[C@@H]1C[C@@H]2CCCC[C@@H]2CN1C[C@@H](O)[C@H](Cc1ccccc1)NC(=O)[C@H](CC(N)=O)NC(=O)c1ccc2ccccc2n1,>100 µM
Cc1cn([C@H]2C[C@H](Nc3n[nH]c(N)n3)[C@@H](CO)O2)c(=O)[nH]c1=O,>100 µg/mL
O=c1ccn([C@H]2C=C(F)[C@@H](CO)S2)c(=O)[nH]1,>100 µM
Cc1cn([C@H]2C[C@H](N=C(NC#N)Oc3ccccc3)[C@@H](CO)O2)c(=O)[nH]c1=O,>100 µg/mL
CCCCCCCCCCCCCCCCOP(=O)([O-])OCCC[n+]1ccccc1,34.6 µM
CCCCCCCC/C=C\CCCCCCCC(=O)OCC(COC(=O)CCCCCCC/C=C\CCCCCCCC)OC(=O)CCC(=O)O[C@H](CN1C[C@H]2CCCC[C@H]2C[C@H]1C(=O)NC(C)(C)C)[C@H](Cc1ccccc1)NC(=O)[C@H](CC(N)=O)NC(=O)c1ccc2ccccc2n1,>100 µM
Nc1ncnc2c1ncn2C1CC(CCP(=O)(O)O)(C(F)(F)F)CO1,>100 µM
O=C(NCc1ccc(O)cc1O)c1ccc2ccc(C(=O)O)c(O)c2n1,>100 µM
CCCCCCCCCCCCCCCC[N+](C)(C)Cc1ccccc1,0.9 µM
Nc1nc2c(ncn2[C@H]2C=C(F)[C@@H](CO)S2)c(=O)[nH]1,>100 µM
O=C(/C=C(\O)c1ccccc1)c1ccc2ccc(C(=O)O)c(O)c2n1,>100 µM
Nc1ncnc2c1ncn2[C@H]1C=C(F)[C@@H](CO)S1,>100 µM
O=Cc1ccc(B(O)O)cc1,120 µM
Nc1ncnc2c1ncn2[C@@H]1C=C(F)[C@H](CO)S1,>100 µM
Nc1nc2c(ncn2C2CC(/C=C/P(=O)(O)O)(C(F)(F)F)CO2)c(=O)[nH]1,>100 µM
Nc1ncnc2c1ncn2CCOCP(=O)(O)O,45 µM
Nc1ncnc2c1ncn2[C@@H]1OC[C@@](/C=C/P(=O)(O)O)(CO)[C@@H]1F,>100 µM
Nc1nc2c(ncn2[C@H]2CC[C@@H](CO)O2)c(=O)o1,>500 µg/mL
Cc1cc(NCCc2c[nH]c3ccccc23)cc(=O)o1,121 µM
Nc1nc(=O)n([C@H]2C=C(F)[C@@H](CO)S2)cc1F,>100 µM
COP(=O)(C[C@H](NP(=O)(O)OC[C@@H]1C=C[C@H](n2cc(C)c(=O)[nH]c2=O)O1)C(=O)O)OC,259 µM
OB(O)c1ccccc1/C=N/NC(=S)Nc1ccccc1,111 µM
CC(C)(C)NC(=O)[C@@H]1C[C@@H]2CCCC[C@@H]2CN1C[C@@H](OC(=O)CCCCOc1ccc(C[C@H](N)C(=O)O)cc1)[C@H](Cc1ccccc1)NC(=O)[C@H](CC(N)=O)NC(=O)c1ccc2ccccc2n1,>100 µM
O=C(NNc1ccc([N+](=O)[O-])cc1[N+](=O)[O-])c1ccc2ccc(C(=O)O)c(O)c2n1,>100 µM
COP(=O)(O)C[C@H](NP(=O)(O)OC[C@@H]1C=C[C@H](n2cc(C)c(=O)[nH]c2=O)O1)C(=O)O,266 µM
CC(=O)c1c(NCc2cccc3ccccc23)cc(C)oc1=O,>250 µM
Nc1nc2c(ncn2[C@@H]2OC[C@@](/C=C/P(=O)(O)O)(CO)[C@@H]2F)c(=O)[nH]1,>100 µM
Cc1cn([C@H]2C=C[C@@H](COP(=O)(O)N(CC(=O)O)CC(=O)O)O2)c(=O)[nH]c1=O,298 µM
O=C1CSC(c2c(F)cccc2F)N1c1ccc(Cl)cn1,47.1 µM
Nc1nc2c(ncn2[C@@H]2O[C@H](COP(=O)(O)O)[C@@H](O)[C@H]2O)c(=O)o1,>500 µg/mL
OB(O)c1ccc(Br)cc1,205 µM
Nc1ccn([C@@H]2C=C(F)[C@H](CO)S2)c(=O)n1,>100 µM
COc1ccc(C=O)cc1B(O)O,>250 µM
COc1cc(NC(=O)c2ccc3ccc(C(=O)O)c(O)c3n2)cc(O)c1O,>100 µM

The last 4 rows once more:

{"smiles": "OB(O)c1ccc(Br)cc1", "result": "205 µM"}
{"smiles": "Nc1ccn([C@@H]2C=C(F)[C@H](CO)S2)c(=O)n1", "result": ">100 µM"}
{"smiles": "COc1ccc(C=O)cc1B(O)O", "result": ">250 µM"}
{"smiles": "COc1cc(NC(=O)c2ccc3ccc(C(=O)O)c(O)c3n2)cc(O)c1O", "result": ">100 µM"}